Anti-infective test results gathered from many reports (values: NIAID ChemDB through PubChem).

All rows: tests in culture; organism: Mycobacterium smegmatis; measure: MIC

Lines come from different laboratories, so protocols vary.

SMILES | strain | result
COc1c(N2CCNCC2)c(F)cc2c(=O)c(C(=O)O)cn(-c3ccc(F)cc3F)c12 | ATCC 19420 | 2 µg/mL
CCCCCCCCCCCCCCCC[N+](C)(C)CC | PSB51 LFR (CCCP) | 2 µg/mL
C[C@H]1c2cccc(O)c2C(O)=C2C(=O)[C@]3(O)C(O)=C(C(N)=O)C(=O)[C@@H](N(C)C)[C@@H]3[C@@H](O)[C@@H]21 | A24185 | 0.06 µg/mL
CCC(O)CNCCNCC(O)CC | ATCC 607 | >250 µg/mL
Cc1c(N2CCC[C@@H](N)C2)c(F)cn2c(=O)c(C(=O)O)cc(C3CC3)c12 | ATCC114 | 0.78 µg/mL
CC[n+]1c(-c2ccccc2)c2cc(N)ccc2c2ccc(N)cc21 | PMN1 LFR (CCCP) | 8 µg/mL
CC[C@@H](NC)[C@@H]1CCN(c2c(F)cn3c(=O)c(C(=O)O)cc(C4CC4)c3c2C)C1.Cl | ATCC114 | 0.2 µg/mL
CC[C@H](COC(C)=O)N(CCN(C(C)=O)[C@@H](CC)COC(C)=O)C(C)=O | ATCC 607 | >250 µg/mL
CC(C)(C)n1cc(C(=O)O)c(=O)c2cc(F)c(N3CCNCC3)nc21 | ATCC 19420 | 0.13 µg/mL
Cc1c(SCCN)c(F)cn2c(=O)c(C(=O)O)cc(C3CC3)c12.O=C(O)C(F)(F)F | ATCC114 | 0.78 µg/mL
CC(C)C(CO)NCCNC(CO)C(C)C.Cl.Cl | ATCC 607 | 250 µg/mL
CC1CN(c2c(F)cc3c(=O)c(C(=O)O)cn(-c4ccc(F)cc4F)c3c2F)CCN1 | ATCC 19420 | 2 µg/mL
Cl.Cl.OCC(CO)(CO)NCCNC(CO)(CO)CO | ATCC 607 | >250 µg/mL
CC1CN(c2c(F)cc3c(=O)c(C(=O)O)cn(C4CC4)c3c2Cl)CC(C)N1 | ATCC 19420 | 0.25 µg/mL
CC[C@H](CO)NCCCN[C@@H](CC)CO.Cl.Cl.O | ATCC 607 | 250 µg/mL
Cc1c(N2CCCC(N)C2)c(F)cn2c(=O)c(C(=O)O)cc(C3CC3)c12 | ATCC114 | 0.2 µg/mL
CCOc1c(N2CCC(N)C2)c(F)cc2c(=O)c(C(=O)O)cn(C3CC3)c12 | ATCC 19420 | 0.13 µg/mL
Cc1c(N2CC(N)C(O)C2)c(F)cn2c(=O)c(C(=O)O)cc(C3CC3)c12.Cl | ATCC114 | 0.2 µg/mL
CCOc1c(N2CCNCC2)c(F)cc2c(=O)c(C(=O)O)cn(C3CC3)c12 | ATCC 19420 | 0.25 µg/mL

Again, the opening 2 rows:

SMILES | strain | result
COc1c(N2CCNCC2)c(F)cc2c(=O)c(C(=O)O)cn(-c3ccc(F)cc3F)c12 | ATCC 19420 | 2 µg/mL
CCCCCCCCCCCCCCCC[N+](C)(C)CC | PSB51 LFR (CCCP) | 2 µg/mL